Experimental data published in patent publication US7550150B2, “Methods of treating or preventing a disease, disorder or condition associated with a viral infection” (Barros Research Institute, priority 2005, dated 2009).

B1: rBBX-01: Recombinant Apicomplexa-related protein (ARP) having the sequence of SEQ ID NO:20; termed Barrogen, also called rBBX-01 or E1 (protein, listed as Eimeria tenella)
chain: GEEADTQAWDTSVREWLVDTGRVFAGGVASIADGCRLFGAAVEGEGNAWEELVKTNYQIEVPQEDGTSISVDCDEAETLRQAVVDGRAPNGVYIGGTKYKLAEVKRDFTFNDQNYDVAILGKNKGGGFLIKTPNENVVIALYDEEKEQNKADALTTALNFAEYLYQGGF

Test system: Influenza A/NWS/33 (H1N1) virus
Settings: for Mean Day to Death ± SD: mice dying prior to day 21
[1] = 20 ng i.p. 4 h pre- and 3 days post-virus
[2] = 200 ng i.p. 4 h pre- and 3 days post-virus
[3] = 10 μg i.p. 4 h pre- and 3 days post-virus

Molecule | Infected, Treated Mice Surv/Total [1] | Mean Day 11 SaO2 (% ± SD) [1] | Mean Day to Death ± SD [1] | Infected, Treated Mice Surv/Total [2] | Mean Day 11 SaO2 (% ± SD) [2] | Mean Day to Death ± SD [2] | effect of treatment (survivors, mean day to death) (200 and 20 ng/mouse i.p. 4 h pre- and 3 days post-virus) | Infected, Treated Mice Surv/Total [3] | Mean Day 11 SaO2 (% ± SD) [3] | Mean Day to Death ± SD [3] | prevented deaths of infected mice (used alone, 10 μg/mouse i.p. 4 h pre- and 3 days post-virus, placebo 15% surviving)
GM-CSF: Granulocyte macrophage - colony stimulating factor | 0/10 | 75.0 ± 0.0% | 9.9 ± 1.2 days | 3/10 | 76.4 ± 2.5% | 9.6 ± 0.8 days | No effect |  |  |  | 
B1 |  |  |  |  |  |  |  | 6/10* | 79.5 ± 4.6% | 10.8 ± 2.4 days | 60%

Like-named read-outs stand apart in the source and are kept apart here. Marks after values point to notes of the source that are not given here.
